Source: PubChem BioAssay AID624099 (ICCB-Longwood, 2012)
Assay: 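Human genes that papillomavirus E2 requires to repress the HPV18 LCR promoter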 (primary screen). Cell system: human C33A cervical carcinoma cells (HPV-negative) stably expressing BPV1 E2 and an HPV18 LCR luciferase reporter. Reagents: siRNA pool against human genes, 40 nM. Duration: 72 h. Detection: 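Per-well luciferase luminescence, z-scored on each plate against the plate mean and SD with control wells left out, then averaged across three replicate plates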. Scale: mean z-score and z-score: higher = stronger reporter signal, weaker E2 silencing. Active means: 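Hit if mean z-score reaches 2 and two or more of three replicate z-scores also reach 2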.
Here is a random part of about 21,000 reagents tested. In the full data, 497 (2.4%) got an active call. 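Higher z means weaker E2 silencing; only reporter increases were scored, and knock-downs that hurt cell survival may mask genuine repressor factors.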 A number with no mark means an inactive call. The numbers tell different reagents against one gene apart. Reagent sequences are not shown.

Gene | reagent | mean z-score | z-score, replicate A | z-score, replicate B | z-score, replicate C
TUBB8P11 | 1 | 1.01 | 1.36 | 1.11 | 0.58
LOC389908 (retired record) | 1 | -0.93 | -1.28 | -0.82 | -0.68
LMCD1 | 1 | -0.15 | -0.26 | -0.47 | 0.29
CCSAP | 1 | 0.18 | 0.21 | 0.27 | 0.07
KCNK3 | 1 | -1.22 | -1 | -1.15 | -1.5
PCDH12 | 1 | 0.21 | 0.07 | -0.05 | 0.62
RANGRF | 1 | -0.18 | -0.33 | 0 | -0.2
RPS26P40 | 1 | 0.04 | -0.12 | 0.22 | 0
PMP2 | 1 | -0.09 | -0.2 | -0.13 | 0.06
NME2 | 1 | -0.28 | -0.49 | -0.36 | 0.01
CHFR | 1 | -0.1 | -0.02 | -0.3 | 0.01
NPIPB6 | 1 | -0.57 | -0.84 | -0.41 | -0.46
EEF2KMT | 1 | -2.2 | -2.19 | -2.54 | -1.89
MBNL3 | 1 | 0.19 | 0.32 | 0.22 | 0.03
SCIMP | 1 | -0.02 | 0.38 | -0.38 | -0.06
CIPC | 1 | 1.65 | 1.29 | 1.7 | 1.97
DACT3 | 1 | 0.67 | 0.91 | 0.97 | 0.12
CALHM4 | 1 | 0.3 | 0.38 | 0.45 | 0.06
DEDD | 1 | 1.14 | 0.93 | 1.11 | 1.39
LOC400740 (retired record) | 1 | 2.2 (active) | 2.39 | 2.08 | 2.11
CASP8 | 1 | -1.13 | -1.06 | -1.3 | -1.04
TMEM121 | 1 | 0.77 | 0.13 | 0.63 | 1.57
MT-ATP8 | 1 | 0.11 | 0.01 | 0.14 | 0.18
SLN | 1 | 0.09 | 0.2 | 0.08 | -0.02
PP2D1 | 1 | 0.03 | 0.11 | 0.1 | -0.13
MYSM1 | 1 | 0.16 | 0.25 | 0.07 | 0.17
STAMBP | 1 | -1.26 | -1.34 | -1.24 | -1.2
NUTM2F | 1 | -0.03 | -0.12 | -0.16 | 0.18
CCNJL | 1 | 0.25 | 0.1 | 0.12 | 0.52
BCORL1 | 1 | 0.59 | 0.59 | 0.74 | 0.43
TSPAN4 | 1 | 1.91 | 2.08 | 1.84 | 1.81
UNC50 | 1 | -1.82 | -2.1 | -1.83 | -1.53
DPH2 | 1 | 1.96 | 1.93 | 2.08 | 1.87
ARHGAP9 | 1 | -1.34 | -1.32 | -1.23 | -1.46
NKAP | 1 | -0.57 | -0.6 | -0.6 | -0.53
PKHD1 | 1 | -0.65 | -0.8 | -0.74 | -0.42
NCALD | 1 | -0.56 | -0.6 | -0.7 | -0.38
PHKG1 | 1 | 0.66 | 0.58 | 0.51 | 0.89
FBXW10 | 1 | 1.85 | 1.91 | 1.92 | 1.7
GREM1 | 1 | 0.39 | 0.35 | 0.57 | 0.25
TIMMDC1 | 1 | 0.66 | 1.22 | 0.58 | 0.17
LOC391553 (retired record) | 1 | 0.14 | 0.29 | 0.12 | 0.03
KCNK6 | 1 | 0.06 | 0.24 | -0.11 | 0.04
ANKRD42 | 1 | -1.09 | -1.3 | -0.62 | -1.35

Only “z-score, replicate A” (8 entries from above):
EEF2KMT: -2.19
MBNL3: 0.32
SCIMP: 0.38
CIPC: 1.29
DACT3: 0.91
CALHM4: 0.38
DEDD: 0.93
LOC400740 (retired record): 2.39 (active)

Additional entries follow:
Gene | reagent | mean z-score | z-score, replicate A | z-score, replicate B | z-score, replicate C
KCNK4 | 1 | -0.02 | -0.57 | 0.39 | 0.13
TANK | 1 | 0.34 | 0.23 | 0.4 | 0.41
DMRTA1 | 1 | -1.27 | -1.64 | -1.56 | -0.59
ZNF740 | 1 | -1.08 | -1.02 | -1.17 | -1.04
SRSF5 | 1 | -0.32 | -0.3 | -0.39 | -0.27
FOXN3-AS1 | 1 | -1.05 | -0.26 | -1.73 | -1.15
ADAMTS9 | 1 | -0.42 | -0.16 | -0.59 | -0.53
FASTKD3 | 1 | -0.88 | -0.91 | -0.75 | -0.97
CAGE1 | 1 | 1.3 | 1.13 | 1.25 | 1.53
CTRB1 | 1 | 1.42 | 1.15 | 1.5 | 1.61
SFTPC | 1 | -0.82 | -0.58 | -0.76 | -1.11
TRIM16L | 1 | -0.65 | -0.95 | -0.25 | -0.75
PNMT | 1 | 1.3 | 1.08 | 1.37 | 1.44
MAP3K11 | 1 | 0.63 | 0.53 | 0.79 | 0.57
VEGFD | 1 | 1.39 | 1.23 | 1.6 | 1.33
KLK15 | 1 | 0.54 | 0.24 | 0.94 | 0.45
NDEL1 | 1 | 0.76 | 0.88 | 0.81 | 0.59
GBP5 | 1 | -2.67 | -2.41 | -3.02 | -2.58
CSTF3 | 1 | 0.68 | 0.45 | 0.69 | 0.89
CPSF6 | 1 | 1.06 | 1.17 | 1.15 | 0.87
DCAF12 | 1 | 0.04 | 0.2 | 0.12 | -0.2
COMMD9 | 1 | -1.48 | -1.24 | -1.3 | -1.9
COMMD9 | 2 | 0.24 | 0.21 | 0.36 | 0.15
NKX3-1 | 1 | -0.42 | -0.22 | -0.45 | -0.6
MSTN | 1 | -0.6 | -0.47 | -0.59 | -0.72
PIM2 | 1 | 0.33 | 0.16 | 0.21 | 0.63
WBP4 | 1 | -1.1 | -1.05 | -1.15 | -1.11
KPNA5 | 1 | 0.49 | 0.3 | 0.42 | 0.74
ZNF630 | 1 | 0.03 | 0.14 | -0.04 | -0.02
